Test system: MT-2 human T-cells
Test: Cytotoxicity, inhibition of MT-2 cell growth
Format: cell-based
Conditions: Table 5, MT-2 cells

## Cc1cc(C#N)cc(C)c1Oc1nc(Nc2ccc(C#N)cc2)nc(N)c1Br [etravirine]
  CC50: 11 µM

Reference: patent US9487476B2, “Catechol diethers as potent anti-HIV agents” (priority 2011, dated 2016)
